Pooled drug test results. Numbers come from NIAID ChemDB, via PubChem.

Common to all: tests in culture; species: HIV-1

Neighbouring rows are from separate reports.

smiles	measure	setting	cell line	method	strain or isolate	changes	result
O=c1[nH]cccc1O	EC50		CEM	syncytia	IIIB		17 µg/mL
O=C(NCc1ccc(F)cc1)c1nc(C2CCNCC2)[nH]c(=O)c1O	EC95	10% FBS	MT-4	p24	IIIB		>10 µM
COC(=O)c1[nH]c2ccccc2c1Sc1ccccc1	EC95		MT-4	p24 / ELISA	IIIB		>3 µM
CCc1cc(NCc2nc3c(Cl)ccc(Cl)c3o2)c(=O)[nH]c1C	EC50		MT-4	p24	NL4-3	RT-A98G	0.8 µM
Cc1cn([C@@H]2C=C[C@H](CO)O2)c(=O)[nH]c1=O	EC50		CEM	p24	LAV		>100 µM
Cc1cn([C@H]2C[C@H](N=[N+]=[N-])[C@@H](COC(=O)NCCSC(=O)OC[C@H]3O[C@@H](n4cc(C)c(=O)[nH]c4=O)C[C@@H]3N=[N+]=[N-])O2)c(=O)[nH]c1=O	EC50		MT-4	cytopathic effect / MTT	WT		5 µM
CCOP(=O)(OC[C@H]1O[C@@H](n2cc(C)c(=O)[nH]c2=O)C[C@@H]1N=[N+]=[N-])C(=O)N1CCOCC1	EC50		MT-4	p24	GKV-4046		<0.00021 µM
Cc1cn([C@H]2C=C[C@@H](COP(=O)(SCCOC(=O)C(C)(C)C)SCCOC(=O)C(C)(C)C)O2)c(=O)[nH]c1=O	EC50		CEM + CEM-SS				0.0044 µM
Nc1ccn([C@H]2CC[C@@H](CO)O2)c(=O)n1	EC50	5 d	MT-2	cytopathic effect / XTT / RT activity	IIIB WT		4.3 µM
NC(=O)c1[nH]c2ccc(Cl)cc2c1S(=O)c1ccccc1	EC95		MT-4	p24 / ELISA	IIIB		0.2 µM
O=C(NCc1ccc(F)cc1)c1nc(C(c2ccccc2)N2CCOCC2)[nH]c(=O)c1O	EC50	10% FBS	MT-4	p24	IIIB		<0.63 µM
CC(C)(C)C(=O)OCCSP(=O)(OC[C@@H]1C=C[C@H](n2cnc3c(N)ncnc32)O1)SCCOC(=O)C(C)(C)C	EC50		CEM + CEM-SS				0.00012 µM
CC(C)(C)NC(=O)[C@@H]1C[C@@H]2CCCC[C@@H]2CN1C[C@@H](O)[C@H](Cc1ccccc1)NC(=O)[C@H](CC(N)=O)NC(=O)c1ccc2ccccc2n1	EC50		PBMC	p24	BR58 (PR L10I K20R M36I/V P63L/S L90M)	PR-L10I K20R M36I/V P63L/S L90M	0.006 µM
Nc1ccn([C@H]2C=C[C@@H](CO)O2)c(=O)n1	EC50		CD4+HELA + HeLa	plaque count	HXB2		0.8 µM
c1cc(CN2CCCNCCNCCCNCC2)ccc1CN1CCCNCCNCCCNCC1	EC50	pseudotyped			LAI		>0.00625 µM
NC(=O)[C@H](Nc1ccccc1[N+](=O)[O-])c1c(Cl)cccc1Cl	EC50			p24	IIIB		0.013 µg/mL
COc1oc([C@H]2C/C(=C/C(C)=C/c3ccc(C(=O)O)cc3)CO2)c(C)c(=O)c1C	EC50		PBMC + LC5-RIC	fluorescence	LAI		10.8 µM
CN1CCN(C)C(c2nc(C(=O)NCc3ccc(F)cc3)c(O)c(=O)[nH]2)C1	EC50	50% human serum	MT-4	p24	IIIB		<0.62 µM
CNC(=O)c1[nH]c2ccccc2c1Sc1ccccc1	EC50		MT-4	p24 / ELISA	IIIB		<0.8 µM
CC(C)(C)NC(=O)[C@@H]1CN(S(=O)(=O)c2cccs2)CCN1C[C@@H](O)C[C@@H](Cc1ccccc1)C(=O)N[C@H]1c2ccccc2C[C@H]1O	EC50		MT-4	p24	IIIB		<0.031 µM
CO[P@](=O)(c1cc(C)cc(/C=C/C#N)c1)c1c(C(N)=O)[nH]c2ccc(Cl)cc12	EC50		MOLT-4		IIIB		0.0006 µM
Cc1[nH]c(=O)c(F)cc1Cn1cnc(C(F)(F)C(F)F)c(Oc2cc(C(F)F)cc(C#N)c2C)c1=O	EC50			RT activity / fluorescence		Y181C	3.51 µM
Nc1ncnc2c1ncn2[C@@H]1O[C@H](CO)C[C@@H]1F	EC50	5 d	MT-2	cytopathic effect / XTT / RT activity	IIIB		25 µM
Nc1ccn([C@H]2CC[C@@H](CO)O2)c(=O)n1	EC50		CD4+HELA + HeLa	plaque count	HXB2	RT-V75T T215Y	1.1 µM
O=C(NCc1ccc(F)cc1)c1nc(N2CCCCS2(=O)=O)c2cccnc2c1O	EC95		Macrophage	p24	BaL		0.104 µM
COc1oc([C@H]2C/C(=C/C(C)=C/c3ccc(Oc4ccccc4)cc3)CO2)c(C)c(=O)c1C	EC90		PBMC + LC5-RIC	fluorescence	LAI		0.4852 µM
COP(=O)(OC[C@H]1O[C@@H](n2cc(C)c(=O)[nH]c2=O)C[C@@H]1N=[N+]=[N-])C(N)=O	EC50		MT-4	p24	GKV-4046		0.0026 µM
CCCOC(=O)c1cc(O)c(O)c(O)c1	EC50		CEM	syncytia	IIIB		2.7 µg/mL
Nc1nc2c(ncn2[C@@H]2C=C[C@H](CO)C2)c(=O)[nH]1	EC50		MT-2	cytopathic effect / XTT	IIIB		>200 µM
CC(=O)Nc1cnc(Oc2c(C)cc(C#N)cc2C)nc1Nc1ccc(C#N)cc1	EC50		MT-4	MTT	IIIB		1.86 µM
CC(=O)Oc1ccc(/C=C/C(=O)O[C@@H](C(=O)O)[C@@H](OC(=O)/C=C/c2ccc(OC(C)=O)c(OC(C)=O)c2)C(=O)O)cc1OC(C)=O	EC50		MT-4	cytopathic effect / MTT	NL4-3	AMD2763-resistant	>74 µM
COc1ccc2nc3cc(Cl)ccc3c(N3CCN(CCO)CC3)c2c1	EC50		MT-4	MTT			>9 µM
Cc1cc(C=O)cc(C)c1Oc1ncc(N)c(Nc2ccc(C#N)cc2)n1	EC50		MT-4	MTT	RES056		8.48 µM
CC(C)(C)NC(=O)[C@@H]1C[C@@H]2CCCC[C@@H]2CN1C[C@@H](OC(=O)CCCCO[C@H]1O[C@H](CO)[C@@H](O)[C@H](O)[C@@H]1O)[C@H](Cc1ccccc1)NC(=O)[C@H](CC(N)=O)NC(=O)c1ccc2ccccc2n1	EC50		MT-4	cytopathic effect / MTT	IIIB		2.165 µM
CC(=O)Nc1cnc(Oc2c(C)cc(C)cc2C)nc1Nc1ccc(C#N)cc1	EC50		MT-4	MTT	IIIB		9.27 µM
CN(C)C1(c2nc(C(=O)NCc3ccc(F)cc3)c(O)c(=O)[nH]2)CC1	EC50	50% human serum	MT-4	p24	IIIB		<1 µM
COc1oc([C@H]2C/C(=C/C(C)=C/c3ccccc3Cl)CO2)c(C)c(=O)c1C	EC90		PBMC + LC5-RIC	fluorescence	LAI		4.211 µM
O=S(Cc1[nH]c2ccccc2c1S(=O)c1ccccc1)c1ccccc1	EC95		MT-4	p24 / ELISA	IIIB		>3 µM
Cc1cn([C@H]2C[C@H](N=[N+]=[N-])[C@@H](CO)O2)c(=O)[nH]c1=O	EC50		MT-4	p24	IIIB		0.04 µM
C[C@@H]1[C@H](O)[C@@H](C)/C=C/C=C/CC/C=C/C=C/C=C/C=C/C(O[C@H]2O[C@H](C)[C@@H](O)[C@H](N)[C@@H]2O)CC2O[C@](O)(CC(O)C(O)CCC(O)CC(O)CC(O)CC(=O)O[C@H]1C)CC(O)C2C(=O)O	EC50		H9	p24 / ELISA			4 µg/mL
CCC(CO)Nc1c2ccc(Cl)cc2nc2ccc(OC)cc12	EC50		MT-4	MTT			>9.6 µM
CC(C)(C)NC(=O)[C@@H]1C[C@@H]2CCCC[C@@H]2CN1C[C@@H](O)[C@H](Cc1ccccc1)NC(=O)[C@H](CC(N)=O)NC(=O)c1ccc2ccccc2n1	EC50		CEM + CEM-SS	RT activity	LAI		0.009 µM
CC(C)=CCN1Cc2cc(Cl)cc3[nH]c(=S)n(c23)C[C@@H]1C	EC50		MT-4	p24 / ELISA	IIIB		<0.4 µM
Cc1cn([C@H]2C=C[C@@H](CO)O2)c(=O)[nH]c1=O	EC50		MT-4	cytopathic effect / MTT	WT		1.7 µM
CN1CCOCC1c1nc(C(=O)NCc2ccc(F)cc2)c(O)c(=O)[nH]1	EC50	10% FBS	MT-4	p24	IIIB		<0.03 µM
CC(C)(C)NC(=O)[C@@H]1CN(Cc2cccnc2)CCN1C[C@@H](O)C[C@@H](Cc1ccccc1)C(=O)N[C@H]1c2ccccc2C[C@H]1OC(=O)CCCCO[C@@H]1[C@@H](O)[C@@H](O)O[C@H](CO)[C@H]1O	EC50		MT-4	cytopathic effect / MTT	IIIB		0.19 µM
Cc1ccnc2c1NC(=O)c1cccnc1N2C1CC1	EC50		MT-2	cytopathic effect / neutral red	NL4-3		0.174 µM
COc1oc([C@H]2C/C(=C/C(C)=C/c3ccc(NS(C)(=O)=O)cc3)CO2)c(C)c(=O)c1C	EC50		PBMC + LC5-RIC	fluorescence	LAI		>10 µM
Nc1ccn(C[C@@H](CO)OCP(=O)(O)O)c(=O)n1	EC50		CD4+HELA + HeLa	p24	IIIB		3 µM
Nc1nc2c(ncn2[C@H]2C=C[C@@H](CO)C2)c(=O)[nH]1	EC50	5 d	MT-2	cytopathic effect / XTT / RT activity	IIIB		2.3 µM
Cc1cn([C@H]2C[C@H](N=[N+]=[N-])[C@@H](CO)O2)c(=O)[nH]c1=O	EC50		MT-4	cytopathic effect / MTT	NNRTI-resistant (RT Y181C)	RT-Y181C	0.02 µM
Cc1cn([C@H]2C[C@H](N=[N+]=[N-])[C@@H](COP(=O)(OCC(C)(C)C)C(N)=O)O2)c(=O)[nH]c1=O	EC90		MT-4	p24	GKV-4046		<0.22 µM
O=S(Cc1[nH]c2ccc(Cl)cc2c1Sc1ccccc1)c1ccccc1	EC50		MT-4	p24 / ELISA	IIIB		<0.8 µM
Cc1cn([C@H]2C[C@H](N=[N+]=[N-])[C@@H](CO)O2)c(=O)[nH]c1=O	EC50		H9	p24 / ELISA			<25 µg/mL
Cc1cc(C#N)cc(C)c1Oc1ncc([N+](=O)[O-])c(Nc2ccc(C#N)cc2)n1	EC50		MT-4	MTT	IIIB		0.0621 µM
CC(C)NCC(O)c1ccc(O)c(O)c1	EC50		CEM	syncytia	IIIB		20 µg/mL
Cc1ccccc1Cc1cccc(C(=O)CC(=O)C(=O)O)c1	EC95		MT-4	p24	IIIB		0.61 µM
CCOC(=O)P(=O)(OC[C@H]1O[C@@H](n2cc(C)c(=O)[nH]c2=O)C[C@@H]1N=[N+]=[N-])OC12CC3CC(CC(C3)C1)C2	EC90		MT-4	p24	GKV-4046		3.9 µM
Nc1nc(=O)n([C@@H]2CC[C@H](CO)O2)cc1F	EC50		CEM				0.5 µM
COc1ccc2nc3cc(Cl)ccc3c(NCC(C)N(C)C)c2c1	EC50		MT-4	MTT			>5.7 µM
Cc1cc(O)cc(C)c1CNC(=O)[C@H](Cc1ccccc1)C[C@H](O)CN1CCN(S(=O)(=O)c2cccs2)C[C@H]1C(=O)NC(C)(C)C	EC50		MT-4	p24	IIIB		<0.063 µM
Cc1cn([C@H]2C[C@H](N=[N+]=[N-])[C@@H](CO)O2)c(=O)[nH]c1=O	EC50		JM	p24	GB8		100 µM
Nc1nc(=O)n([C@@H]2CS[C@H](CO)O2)cc1F	EC50		PBMC	RT activity	LAI		0.008 µM
Cc1ccnc2c1NC(=O)c1cccnc1N2C1CC1	EC50		MAGI	β-galactosidase	NNRTI-resistant (RT K103N V108I)	RT-K103N V108I	23 µM
COc1oc([C@H]2C/C(=C/C(C)=C/c3ccc(OC(C)=O)cc3)CO2)c(C)c(=O)c1C	EC90		PBMC + LC5-RIC	fluorescence	LAI		0.2698 µM
Cc1cn([C@H]2C[C@H](N=[N+]=[N-])[C@@H](CO)O2)c(=O)[nH]c1=O	EC50	clinical isolate	PBMC	p24 / RT activity	Clinical isolate		0.00163 µM
CC(C)(C)NC(=O)[C@@H]1CN(Cc2cccnc2)CCN1C[C@@H](O)C[C@@H](Cc1ccccc1)C(=O)N[C@H]1c2ccccc2C[C@H]1O	EC50		MT-4	cytopathic effect / MTT	IIIB		0.022 µM
CC[C@@]1(O)C(=O)OCc2c1cc1n(c2=O)Cc2c-1nc1ccccc1c2CO	EC50		C8166	syncytia	IIIB		0.0008 µg/mL
Cc1cc(=O)oc2cc(O)c(O)cc12	EC50		CEM	syncytia	IIIB		2.7 µg/mL
COc1oc([C@H]2C/C(=C/C(C)=C/c3ccccc3)CO2)c(C)c(=O)c1C	EC50		PBMC + LC5-RIC	fluorescence	LAI		0.0015 µM
CC(C)(C)NC(=O)[C@@H]1CN(Cc2cccnc2)CCN1C[C@@H](O)C[C@@H](Cc1ccccc1)C(=O)N[C@H]1c2ccccc2C[C@H]1O	EC50		MT-2	cytopathic effect / neutral red	NL4-3		0.0063 µM
CC(C)c1nc(CN(C)C(=O)N[C@H](C(=O)N[C@@H](Cc2ccccc2)C[C@H](O)[C@H](Cc2ccccc2)NC(=O)OCc2cncs2)C(C)C)cs1	EC90		MT-4	p24	NL4-3		0.2 µM

For reference, 10 entries again:

smiles | measure | setting | cell line | method | strain or isolate | changes | result
CCOP(=O)(OC[C@H]1O[C@@H](n2cc(C)c(=O)[nH]c2=O)C[C@@H]1N=[N+]=[N-])C(=O)N1CCOCC1 | EC50 |  | MT-4 | p24 | GKV-4046 |  | <0.00021 µM
Cc1cn([C@H]2C[C@H](N=[N+]=[N-])[C@@H](CO)O2)c(=O)[nH]c1=O | EC50 |  | H9 | p24 / ELISA |  |  | <25 µg/mL
CC(C)(C)NC(=O)[C@@H]1CN(Cc2cccnc2)CCN1C[C@@H](O)C[C@@H](Cc1ccccc1)C(=O)N[C@H]1c2ccccc2C[C@H]1O | EC50 |  | MT-2 | cytopathic effect / neutral red | NL4-3 |  | 0.0063 µM
COc1oc([C@H]2C/C(=C/C(C)=C/c3ccccc3)CO2)c(C)c(=O)c1C | EC50 |  | PBMC + LC5-RIC | fluorescence | LAI |  | 0.0015 µM
CC(C)(C)C(=O)OCCSP(=O)(OC[C@@H]1C=C[C@H](n2cnc3c(N)ncnc32)O1)SCCOC(=O)C(C)(C)C | EC50 |  | CEM + CEM-SS |  |  |  | 0.00012 µM
CCc1cc(NCc2nc3c(Cl)ccc(Cl)c3o2)c(=O)[nH]c1C | EC50 |  | MT-4 | p24 | NL4-3 | RT-A98G | 0.8 µM
CCCOC(=O)c1cc(O)c(O)c(O)c1 | EC50 |  | CEM | syncytia | IIIB |  | 2.7 µg/mL
CC(C)(C)NC(=O)[C@@H]1C[C@@H]2CCCC[C@@H]2CN1C[C@@H](OC(=O)CCCCO[C@H]1O[C@H](CO)[C@@H](O)[C@H](O)[C@@H]1O)[C@H](Cc1ccccc1)NC(=O)[C@H](CC(N)=O)NC(=O)c1ccc2ccccc2n1 | EC50 |  | MT-4 | cytopathic effect / MTT | IIIB |  | 2.165 µM
COc1oc([C@H]2C/C(=C/C(C)=C/c3ccc(C(=O)O)cc3)CO2)c(C)c(=O)c1C | EC50 |  | PBMC + LC5-RIC | fluorescence | LAI |  | 10.8 µM
Nc1ncnc2c1ncn2[C@@H]1O[C@H](CO)C[C@@H]1F | EC50 | 5 d | MT-2 | cytopathic effect / XTT / RT activity | IIIB |  | 25 µM

An empty or dashed field is not shown. ECn is the concentration giving n% inhibition of infection, replication or growth.